Measurements taken from ChEMBL document CHEMBL2029225, “Synthesis of marine-derived 3-alkylpyridinium alkaloids with potent antiprotozoal activity” (ACS Med Chem Lett, 2011).

Key:
[1] = system: Trypanosoma brucei brucei; assay: Antitrypanosomal activity against bloodstream form of Trypanosoma brucei brucei 427 (BS221) after 72 hrs by alamar blue assay
[2] = system: Trypanosoma brucei brucei; assay: Antitrypanosomal activity against TbAt1-deficient bloodstraem form of Trypanosoma brucei brucei 427 (BS221) after 72 hrs by alamar blue assay
[3] = system: Trypanosoma brucei brucei; assay: Antitrypanosomal activity against TbAt1-deficient bloodstraem form Trypanosoma brucei brucei B48 after 72 hrs by alamar blue assay

O=[As]c1ccccc1 (stereo not drawn) showed an EC50 [1] of 0.66 nM, an EC50 [2] of 0.45 nM and an EC50 [3] of 1.3 nM.
